Measured values reported in ChEMBL document CHEMBL2390950, “Dieckol, a SARS-CoV 3CL(pro) inhibitor, isolated from the edible brown algae Ecklonia cava” (Bioorg Med Chem, 2013).

Target: Replicase polyprotein 1ab (Severe acute respiratory syndrome-related coronavirus, UniProt P0C6X7)

O=C1c2cccc(O)c2C(=O)c2c(O)cc(CO)cc21 [ALOE-EMODIN] gave an IC50 of 132 µM.
